Pooled drug test results. Numbers come from NIAID ChemDB, via PubChem.

All rows: toxicity to cultured cells; measure: CC50

CCn: concentration that lowers growth or viability of the cells by n%. Conditions beyond the fields shown may differ between rows. a–b is a range or a potency band. Blank or dashed fields: not listed here.

compound | method | cell line | setting | value
CC(N)C(=O)NC1C(C)OC(=O)C2=C(O)CC(O)C(O)C21 |  | HeLa |  | 167 µM
Nc1ncnc2c1ncn2[C@@H]1O[C@H](CO)C[C@@H]1O |  | TR-14 |  | >50 µg/mL
O=C(Nc1cccc(C(F)(F)F)c1)NC1N=C(c2ccccc2)c2ccccc2NC1=O |  | HEP-2 |  | 9.7 µM
Nc1nc(=O)n([C@@H]2CS[C@H](CO)O2)cc1F |  | BFU-E |  | 220 µM
OC[C@H]1O[C@@H](n2cnc3c(NC4CCCCCC4)nc(Cl)nc32)[C@H](O)[C@@H]1O | MTT | Sheep chondrocytes G81092 |  | 100 µM
Nc1ncnc2c1ncn2C[C@@H](CO)OCP(=O)(O)O | MTS | HEL |  | 12 µM
COC(=O)[C@@H]1[C@H](c2cc(OC)c(OC(C)=O)c(OC(C)=O)c2)c2cc3c(cc2C2=NOC[C@@H]21)OCO3 |  | P-388 |  | 20 µM
Nc1nc(OCCOCP(=O)(O)O)cc(=O)[nH]1 |  | L1210 |  | 10 µM
C=C[C@]1(C)C[C@@H](OC(=O)CO)[C@]2(C)C(C)CC[C@]3(CCC(=O)C32)[C@@H](C)[C@@H]1O |  | HeLa |  | >530 µM
Nc1ccn(C[C@H]2COP(=O)(O)CO2)c(=O)n1 | MTT | HSB-2 |  | 224 µM
COc1cc(O)cc2oc3cc(O)c(O)cc3c(=O)c12 | XTT / absorbance | 1A2 |  | >456 µM
COc1ccc(C(=O)NC2N=C(c3ccc(C(F)(F)F)cc3)c3ccccc3NC2=O)cc1 |  | HEP-2 |  | 7 µM
Nc1nc(N)c2ncn(C[C@@H](CO)OCP(=O)(O)O)c2n1 | MTT | CBMC |  | 33 µM
C[C@H]1[C@H](O)C(=O)CC2[C@]3(C)CC[C@@]4(C)C5CC(C)(C)CC[C@]5(C)CC[C@]4(C)C3CC[C@@]21C | sulforhodamine / absorbance | ASK (Atlantic salmon kidney) |  | >50 µM
COc1ccccc1CCC(=O)NC1N=C(c2ccccc2)c2ccccc2NC1=O |  | HEP-2 |  | 5 µM
Nc1nc(Cl)cc2c1ncn2[C@@H]1O[C@H](CO)C[C@H]1O |  | MDBK |  | <50 µM
Nc1ccn(C[C@H]2COP(=O)(O)CO2)c(=O)n1 | MTS | HEL |  | 344 µM
O=C1C[C@@H](c2ccc(O)cc2)Oc2cc(O)c(-c3c(O)cc4c(c3O)C(=O)C[C@@H](c3ccc(O)cc3)O4)c(O)c21 | visual reading | MDCK |  | 15 µg/mL
CC(C)=CC[C@H]1C[C@@]2(C[C@H]3CCC(C)(C)C=C3C)C(=O)[C@](C(=O)c3ccccc3)(C(=O)C3=C2OC(C)(C)CC3)C1(C)C | sulforhodamine / absorbance | ASK (Atlantic salmon kidney) |  | >50 µM
O=C(O)P(=O)(O)O | MTT | HSB-2 |  | 250 µM
Nc1cc(Cl)nc2c1ncn2[C@@H]1O[C@H](CO)C[C@H]1O | MTT | Sheep chondrocytes G81092 |  | >400 µM
O=c1c2cccc(O)c2oc2cccc(O)c12 | XTT / absorbance | 1A2 |  | 433 µM
COC(=O)c1cc2cc3cc4cc(CC(=O)O)c(/C(O)=C/C(=O)c5ccccc5O)c(OC)c4c(OC)c3c(O)c2c(=O)o1 |  | HeLa |  | 100–200 µg/mL
OC[C@H]1O[C@@H](n2cnc3c(NC4CCCCCC4)cc(Cl)nc32)C[C@@H]1O | MTT | Sheep chondrocytes G81092 |  | 230 µM
COC(=O)c1c(OC)cc2cc3c(c(O)c2c1C)C(=O)[C@]1(O)C(=O)C=C(OC)[C@@H](O)[C@]1(O)C3=O |  | HeLa |  | 212 µM
CN(C)c1cc(OCCOCP(=O)(O)O)nc(N)n1 |  | CCRF-CEM |  | <10 µM
Nc1nc(Cl)nc2c1ncn2[C@H]1CC[C@@H](CO)O1 |  | MDBK |  | <50 µM
CC1C(=O)N(O)c2ncc(Br)cc2C1O | MTS | HepDES19 | 3 d | 69.3 µM
CC1Oc2cc(O)c3c(=O)c4ccc(O)c(O)c4oc3c2C1(C)C | sulforhodamine / absorbance | KB |  | 1.68 µM
Nc1ccn(C[C@@H](CO)OCP(=O)(O)O)c(=O)n1 | MTS | HEL |  | 83 µM
Nc1nc(=O)n([C@@H]2CC[C@H](CO)O2)cc1F |  | CFU-GM |  | 12 µM
O=c1[nH]c(=O)n([C@H]2C[C@H](O)[C@@H](CO)O2)cc1/C=C/Br | MTT | HSB-2 |  | 3.5 µM
Nc1ncnc2c1ncn2[C@H]1C[C@H](O)[C@@H](CO)O1 |  | Sheep chondrocytes G81092 |  | >400 µM
CCCCNC(=O)NC1N=C(c2ccccc2)c2ccccc2NC1=O |  | HEP-2 |  | 1.5 µM
OC[C@@H]1C[C@@H](O)[C@H](n2cnc3c(NC4CCCCCC4)ccnc32)O1 |  | Sheep chondrocytes G81092 |  | 210 µM
CN[C@@H]1[C@@H](O)[C@@H](O[C@@H]2[C@@H](O)[C@H](O[C@H]3OC([C@H](C)N)=CC[C@H]3N)[C@@H](N)C[C@H]2N)OC[C@]1(C)O |  | HeLa |  | >200 µg/mL
COC(=O)[C@@H]1[C@H](c2cc(OC)c3nc4ccccc4nc3c2)c2cc3c(cc2C2=NOC[C@@H]21)OCO3 |  | HT-29 |  | 10 µM
COc1cc(-c2ccccc2)c(O)c(OC)c1O | sulforhodamine / absorbance | ASK (Atlantic salmon kidney) |  | >50 µM
OC[C@@H]1CC[C@H](n2cnc3c(Cl)ncnc32)O1 |  | BFU-E |  | 2.9 µM
O=c1cc(-c2ccc(O)c(-c3c(O)cc4oc(-c5ccc(O)cc5)cc(=O)c4c3O)c2)oc2cc(O)cc(O)c12 | visual reading | MA-104 |  | ~56 µg/mL
Nc1ccn(C[C@@H](CO)OCP(=O)(O)O)c(=O)n1 |  | U138-MG |  | 130 µg/mL
COc1c2c(c(C(=O)c3cccc(O)c3)c3c1C=CC(C)(C)O3)OC(C)(C)C=C2 | XTT / absorbance | 1A2 |  | 31.06 µM
Nc1nc(Cl)nc2c1ncn2[C@@H]1O[C@H](CO)[C@@H](O)[C@H]1O |  | MDBK |  | <50 µM
CC1(C)C=Cc2c(c(O)cc3oc4cc(O)cc(O)c4c(=O)c23)O1 | XTT / absorbance | 1A2 |  | 127 µM
O=C1c2c(O)cc(O)cc2O[C@@H](c2ccc(O)cc2)[C@@H]1c1c(O)cc(O)c2c(=O)cc(-c3ccc(O)c(O)c3)oc12 | sulforhodamine / absorbance | HT-29 |  | >50 µM
Nc1nc2c(ncn2COC(CO)CO)c(=O)[nH]1 | MTT | HSB-2 |  | 54 µM
NC[C@H]1O[C@H](O[C@H]2[C@H](O)[C@@H](O)[C@H](N)C[C@@H]2N)[C@H](N)[C@@H](O)[C@@H]1O |  | HeLa |  | >200 µg/mL
Nc1nc(NC2CC2)cc(OCCOCP(=O)(O)O)n1 |  | L1210 |  | <10 µM
O=c1[nH]c(=O)n([C@@H]2O[C@H](CO)[C@@H](O)[C@@H]2O)cc1/C=C/Br | MTT | CBMC |  | 106 µM
COc1cc(O)cc(OC)c1C(=O)c1ccc(O)c(O)c1 | XTT / absorbance | 1A2 |  | 123 µM
CCOc1ccc(C(C)=O)cc1C(=O)NC1N=C(c2ccccc2)c2ccccc2NC1=O |  | HEP-2 |  | 3.5 µM
Nc1nc(N)c2ncn([C@H]3CC[C@@H](CO)O3)c2n1 |  | GEMM-CFC |  | 165 µM
COc1cc([C@@H]2c3cc4c(cc3[C@H](OC(C)=O)[C@@H]3COC(=O)[C@@H]23)OCO4)cc(OC(C)=O)c1OC(C)=O |  | P-388 |  | 2.2 µM
Nc1ncnc2c1ncn2C[C@@H](CO)OCP(=O)(O)O | MTT | CBMC |  | 23 µM
COc1cc([C@@H]2c3cc4c(cc3[C@H](OC(C)=O)[C@@H]3COC(=O)[C@@H]23)OCO4)cc(O)c1O |  | P-388 |  | 2.8 µM
O=c1[nH]c(=O)n([C@H]2C[C@H](O)[C@@H](CO)O2)cc1/C=C/Br |  | OST TK- |  | 1437 µM
CC(=O)Oc1ccc([C@@H]2CC(=O)c3c(cc(OC(C)=O)c(-c4c(OC(C)=O)cc5c(c4OC(C)=O)C(=O)C[C@@H](c4ccc(OC(C)=O)cc4)O5)c3OC(C)=O)O2)cc1 | neutral red | BSC-1 |  | <200 µg/mL
Cc1ccc(C(=O)Nc2ccc(S(=O)(=O)O)c3cc(S(=O)(=O)O)cc(S(=O)(=O)O)c23)cc1NC(=O)c1cccc(NC(=O)Nc2cccc(C(=O)Nc3cc(C(=O)Nc4ccc(S(=O)(=O)O)c5cc(S(=O)(=O)O)cc(S(=O)(=O)O)c45)ccc3C)c2)c1 |  | HeLa |  | >140 µM
C[C@@H](COc1cc(N)nc(N)n1)OCP(=O)(O)O |  | L1210 |  | <10 µM
Nc1nc(Cl)nc2c1ncn2[C@H]1C[C@H](O)[C@@H](CO)O1 |  | MDBK |  | <50 µM
COc1cc([C@@H]2c3cc4c(cc3[C@H](OC(C)=O)[C@@H]3COC(=O)[C@@H]23)OCO4)cc2nccnc12 |  | HT-29 |  | 0.56 µM
Nc1cc(=O)n(CCOCP(=O)(O)O)c(N)n1 |  | HeLa S3 |  | <10 µM

The last 9 rows once more:

compound	method	cell line	setting	value
Nc1ncnc2c1ncn2C[C@@H](CO)OCP(=O)(O)O	MTT	CBMC		23 µM
COc1cc([C@@H]2c3cc4c(cc3[C@H](OC(C)=O)[C@@H]3COC(=O)[C@@H]23)OCO4)cc(O)c1O		P-388		2.8 µM
O=c1[nH]c(=O)n([C@H]2C[C@H](O)[C@@H](CO)O2)cc1/C=C/Br		OST TK-		1437 µM
CC(=O)Oc1ccc([C@@H]2CC(=O)c3c(cc(OC(C)=O)c(-c4c(OC(C)=O)cc5c(c4OC(C)=O)C(=O)C[C@@H](c4ccc(OC(C)=O)cc4)O5)c3OC(C)=O)O2)cc1	neutral red	BSC-1		<200 µg/mL
Cc1ccc(C(=O)Nc2ccc(S(=O)(=O)O)c3cc(S(=O)(=O)O)cc(S(=O)(=O)O)c23)cc1NC(=O)c1cccc(NC(=O)Nc2cccc(C(=O)Nc3cc(C(=O)Nc4ccc(S(=O)(=O)O)c5cc(S(=O)(=O)O)cc(S(=O)(=O)O)c45)ccc3C)c2)c1		HeLa		>140 µM
C[C@@H](COc1cc(N)nc(N)n1)OCP(=O)(O)O		L1210		<10 µM
Nc1nc(Cl)nc2c1ncn2[C@H]1C[C@H](O)[C@@H](CO)O1		MDBK		<50 µM
COc1cc([C@@H]2c3cc4c(cc3[C@H](OC(C)=O)[C@@H]3COC(=O)[C@@H]23)OCO4)cc2nccnc12		HT-29		0.56 µM
Nc1cc(=O)n(CCOCP(=O)(O)O)c(N)n1		HeLa S3		<10 µM